# Test results published in patent US20040170653A1, “Tumour peptide antigen produced from human mdm2 proto-oncogene” (priority 2001, published 2004).
# System: T2 cells
# Test: Cytotoxicity test (51Cr release) of hdm2 81-88-specific CTL on peptide-loaded T2 target cells (peptide titration, peptide specificity)
# Format: cell-based, human
# Details: CTL lines A2 81 and CD8×A2 K^b 81; 4-hour test
substance,measurement,value
"Flu M1 58-66: peptide 58-66 of the A/PR/8/34 influenza virus matrix protein M1, positive control [reference compound]",lysis of peptide-loaded T2 cells by both hdm2 81-88-specific CTL lines,not recognized
